# Data source: PubChem BioAssay AID1259414 (Drosophila RNAi Screening Center, 2018)
# Aim: 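Fly genes that alter Wolbachia amount inside host cells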 (primary screen)
# System: Drosophila JW18 cells infected with Wolbachia
# Knock-down reagent: long dsRNA against Drosophila genes, 0.25 µg dsRNA per well of a 384-well plate
# Duration: 5 days
# Challenge: cells persistently infected with Wolbachia before knock-down; no added drug
# Detection: 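Automated imaging of bacterial rRNA staining divided by host cell count, reported as plate-normalised robust z-score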
# Scale: Wolbachia per cell robust z: higher = more Wolbachia per host cell than the plate typical
# Rule for the call: 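Active if absolute robust z reaches 1.5 in two or more of three replicates, leaving out multi- or no-target dsRNAs, genes unexpressed in JW18 and A1 wells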
# The deposit covers about 24,000 reagents; shown is an unselected part of those with a known target gene and a result. In the full data, about 1,210 (5%) are marked active. 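Inactive calls also include excluded dsRNAs with several or no targets, genes unexpressed in JW18, and well A1, regardless of score.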 Reagents against one gene are numbered here. A plus sign joins genes that one reagent is predicted to hit.
predicted target,dsRNA no.,"Wolbachia per cell robust z, rep 1","Wolbachia per cell robust z, rep 2","Wolbachia per cell robust z, rep 3",activity call
Idgf1,1,-0.557,-0.151,-1.33,inactive
Idgf1,2,0.814,0.601,1.38,inactive
DUBAI,1,-0.371,-1.32,-0.208,inactive
EMC3,1,0.952,-4.93,0.17,inactive
EMC3,2,0.814,-0.0928,-0.158,inactive
red,1,0.535,1.18,2.4,inactive
Rpe,1,-0.212,0.824,-5.33,inactive
CG16903,1,0.779,1.25,1.54,inactive
Lcp65Ag3 + Lcp65Ag1 + Lcp65Ag2,1,0.389,0.302,1.73,inactive
mRpS24,1,1.45,0.898,0.73,inactive
OdsH,1,0.844,1.15,1.16,inactive
CG5687,1,-0.0213,-0.237,0.285,inactive
CG14074,1,0.459,-0.795,0.103,inactive
CG14074,2,-1.36,-0.548,-0.669,inactive
Exn,1,0.469,-1.07,-2.66,inactive
Exn,2,0.799,-0.515,0.85,inactive
Exn,3,-0.12,0.0938,1.68,inactive
Exn,4,0.13,1.59,0.897,inactive
Dus3,1,0.0116,-0.499,-3.74,inactive
Dus3,2,1.1,1.54,0.686,inactive
CG1421,1,0.292,0.198,0.2,inactive
gkt,1,-1.24,0.0281,-0.144,inactive
CG14354,1,-0.137,-0.861,0.0887,inactive
CG12848,1,0.846,0.719,-2.29,inactive
ND-15,1,1.47,0.731,-0.268,inactive
Tsp3A,1,-0.178,0.242,-0.255,inactive
Tsp3A,2,-0.325,1.19,0.527,inactive
Tg,1,0.315,-0.269,0.273,inactive
Tg,2,1.23,1.05,1.8,inactive
CG14050,1,0.519,-0.504,0.274,inactive
CG8642,1,-0.383,-1.29,-0.333,inactive
CG15022,1,0.0443,-0.858,1.31,inactive
CG15022,2,1.33,-0.986,-0.0825,inactive
CG17999,1,-1.48,0.349,0.355,inactive
ChLD3,1,-1.21,0.384,-0.383,inactive
Cad96Cb,1,0.0792,-0.183,0.876,inactive
Cad96Cb,2,0.0916,-1.88,0.458,inactive
Cad96Cb,3,-0.147,0.531,0.941,inactive
gl,1,0.312,0.687,1.21,inactive
CG4615,1,0.655,-0.735,0.236,inactive
CG4615,2,-2.38,1.93,0.154,inactive
CG4615,3,-2.19,-0.671,-0.779,inactive
p47,1,1.53,-3.2,0.758,inactive
fend,1,-1.81,-1.31,-0.833,inactive
fend,2,-0.332,0.139,0.0592,inactive
CG4658,1,-5.63,-4.06,0.0793,active
Pkg21D,1,-0.654,-1.22,0.435,inactive
Pkg21D,2,0.459,-2.99,1.22,inactive
CG14803,1,0.475,0.567,0.67,inactive
Srr,1,1.26,1.07,1.37,inactive
Srr,2,0.604,0.546,-0.886,inactive
CG12998,1,-0.0513,-2.07,-2.88,inactive
CG31855,1,-0.39,0.883,-4.72,inactive
CG31855,2,-0.327,-0.436,-2,inactive
CG14448,1,0.14,0.241,-0.0117,inactive
CG14448,2,0.548,0.546,0.584,inactive
Hsp70Bb + Hsp70Ba + Hsp70Bbb + 1 more,1,1.21,0.456,1.17,inactive
CG14096,1,-1.37,0.986,-0.0973,inactive
Cftr,1,-2.66,-7.55,0.225,active
Cftr,2,-0.45,0.241,-0.0362,inactive
CG2061,1,0.00854,0.635,-1.84,inactive
CG12546,1,-0.602,-0.0992,-0.223,inactive
pinta,1,0.692,0.799,0.343,inactive
muskelin,1,0.514,0.687,0.0872,inactive
BicD,1,-4.14,0.849,0.376,inactive
CG31999,1,-3.56,-5.96,-4.18,inactive
CG31999,2,0.411,0.445,-0.256,inactive
CG17486,1,0.436,-0.606,-1.23,inactive

Ordered by “Wolbachia per cell robust z, rep 3” (high to low): 9 of the entries above
predicted target,dsRNA no.,"Wolbachia per cell robust z, rep 1","Wolbachia per cell robust z, rep 2","Wolbachia per cell robust z, rep 3",activity call
Dus3,2,1.1,1.54,0.686,inactive
Tsp3A,2,-0.325,1.19,0.527,inactive
CG1421,1,0.292,0.198,0.2,inactive
CG14354,1,-0.137,-0.861,0.0887,inactive
gkt,1,-1.24,0.0281,-0.144,inactive
Tsp3A,1,-0.178,0.242,-0.255,inactive
ND-15,1,1.47,0.731,-0.268,inactive
CG12848,1,0.846,0.719,-2.29,inactive
Dus3,1,0.0116,-0.499,-3.74,inactive
